Results deposited as PubChem BioAssay AID624099 (ICCB-Longwood, 2012).

Assay: 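Knock-downs relieving repression by E2 of an HPV18 LCR luciferase reporter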 (primary screen)
System: human C33A cervical carcinoma cells (HPV-negative) stably expressing BPV1 E2 and an HPV18 LCR luciferase reporter
Knock-down reagent: siRNA pool against human genes, 40 nM
Timing: 72 h
Detection: 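HPV18 LCR reporter light per well, converted to plate-wise z-scores that exclude control wells, and averaged over triplicate plates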
Direction: mean z-score and z-score: higher = stronger reporter signal, weaker E2 silencing
Rule for the call: 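Mean z ≥ 2 together with z ≥ 2 in two or more of the three replicates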
The deposit covers about 21,000 reagents; this is a random part of them. Over the whole deposit, 497 (2.4%) were called active. 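Higher z means weaker E2 silencing; only reporter increases were scored, and knock-downs that hurt cell survival may mask genuine repressor factors.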 Entries without a mark were called inactive. Reagent sequences are not shown.

| mean z-score | z-score, replicate A | z-score, replicate B | z-score, replicate C | target gene |
| --- | --- | --- | --- | --- |
| -1 | -1 | -1.08 | -0.94 | TMEM147 (GeneID 10430) |
| 0.96 | 0.81 | 0.99 | 1.07 | NUDT10 (GeneID 170685) |
| 0.66 | 0.66 | 0.41 | 0.93 | MID1 (GeneID 4281) |
| -0.87 | -0.9 | -0.21 | -1.51 | NSUN5P1 (GeneID 155400) |
| -0.67 | -1.03 | -0.95 | -0.04 | PGAP6 (GeneID 58986) |
| -1.03 | -0.53 | -1.11 | -1.45 | CCT8 (GeneID 10694) |
| -0.9 | -0.89 | -0.83 | -0.98 | SNRPB (GeneID 6628) |
| 1.33 | 1.14 | 1.36 | 1.5 | SAMD13 (GeneID 148418) |
| -0.42 | -0.84 | -0.55 | 0.14 | KANK4 (GeneID 163782) |
| 0.4 | 0.26 | 0.53 | 0.4 | LOC400479 (retired record) (GeneID 400479) |
| -1.65 | -1.9 | -1.57 | -1.46 | TAF11L2 (GeneID 391742) |
| 0.53 | 0.46 | 0.77 | 0.35 | MCMDC2 (GeneID 157777) |
| -1.39 | -1.46 | -1.5 | -1.21 | LCA5 (GeneID 167691) |
| -1 | -1.13 | -0.94 | -0.92 | CADPS (GeneID 8618) |
| 1.28 | 1.03 | 1.34 | 1.46 | GSTK1 (GeneID 373156) |
| 1.58 | 1.59 | 1.57 | 1.57 | MADCAM1 (GeneID 8174) |
| -0.74 | -0.56 | -0.78 | -0.88 | USP50 (GeneID 373509) |
| 0.35 | 0.35 | -0.02 | 0.73 | IQGAP2 (GeneID 10788) |
| 0.14 | 0.19 | 0.08 | 0.14 | SELE (GeneID 6401) |
| 0.39 | -0.1 | 0.63 | 0.63 | H2BC8 (GeneID 8339) |
| 1.15 | 1.66 | 0.79 | 0.99 | BRD10 (GeneID 158358) |
| -0.2 | 0 | 0.03 | -0.63 | LINC01235 (GeneID 401492) |
| 0.19 | -0.19 | 0.18 | 0.59 | YAF2 (GeneID 10138) |
| 0.28 | 0.55 | 0.14 | 0.16 | CRTC2 (GeneID 200186) |
| -0.82 | -0.58 | -0.92 | -0.98 | PTGES2 (GeneID 80142) |
| 0.44 | 0.18 | 0.22 | 0.91 | ZNF83 (GeneID 55769) |
| 0.44 | 0.39 | 0.56 | 0.37 | CYTH1 (GeneID 9267) |
| -1.13 | -0.99 | -1.46 | -0.95 | SLC10A4 (GeneID 201780) |
| 0.01 | -0.19 | 0.18 | 0.03 | LINC00900 (GeneID 283143) |
| -0.2 | 0.13 | -0.41 | -0.32 | STRA6 (GeneID 64220) |
| 0.39 | 0.19 | 0.6 | 0.39 | RBM8A (GeneID 9939) |
| 0.15 | 0.15 | -0.06 | 0.37 | AFDN (GeneID 4301) |
| 0.34 | 0.67 | – | 0.02 | DUX3 (GeneID 26582) |
| 0.2 | 0.38 | 0.08 | 0.15 | PTPN13 (GeneID 5783) |
| -0.25 | -0.26 | -0.4 | -0.09 | AZGP1 (GeneID 563) |
| -0.96 | -0.87 | -1.02 | -1 | RANBP9 (GeneID 10048) |
| -0.11 | -0.13 | -0.34 | 0.15 | SCTR (GeneID 6344) |
| -0.21 | -0.17 | -0.44 | 0 | LOC402565 (retired record) (GeneID 402565) |
| -0.43 | -0.2 | -0.34 | -0.76 | MRPL39 (GeneID 54148) |
